We go through one compound from PMC5298231, “The Malaria Parasite's Lactate Transporter PfFNT Is the Target of Antiplasmodial Compounds Identified in Whole Cell Phenotypic Screens” (PLoS Pathogens, 2017).

The test concerns erythrocytes infected with 3D7 trophozoites. Briefly: Untargeted LC-MS metabolite profiling, intracellular metabolites of parasitised erythrocytes. The test is classed as cell-based, Plasmodium falciparum.

For part of its entries the source gives two or more results. The other results are left out here. There may be further records. Results that share an entry do not match, cause unknown; dose, time, organism, isomer or construct need not be as stated for each record.

Consider `COc1ccc2c(c1)OC(O)(C(F)(F)C(F)(F)F)CC2=O` (centres unmarked) [MMV007839], for which the “Isopentenylpyrophosphate log2 ratio (+MMV007839/-MMV007839)” value is listed as 0.3029, 0.5352, 0.1765 and the “Isopentenylpyrophosphate, Average” value was 0.3029, 0.5352, 0.1765.
